Experimental data from the supplement of paper PMC9931576.
Human monoclonal antibodies against the spike receptor-binding domain (heavy:light variable regions). IC50 against pseudoviruses bearing the spike of naturally observed variants; lower = stronger; >10 µg/ml means not reached at the top dose. No active / inactive call. The stated detection limit is 0.0005 µg/ml; values near or below 0.001 µg/ml lie at the floor of the assay.

B1: BD55-4760 (protein)
chain 1: EVQLVEAGGDLVQPGRSLRLSCAASGFNFDDCAMHWVRQAPGKGLEWVSGINWSSGDIDYADSVKGRFTISRDNAKNSLYLQMNSLRPEDTAFYYCAKDPWGELSSIDFWGQGTLVTVSS
chain 2: QLVLTQSPSASASLGASVKLTCTLSRGHSSYAIAWHQQQPEKGPRYLMRVNSDGSHIKGDGIPDRFSGSSSGAERYLTISSLQSEDEADYYCQTWSIGIRVFGGGTKLTVL
B2: BD55-4892 (protein)
chain 1: QVQLVESGGGVVQPGGSLRLSCAASGFTFSTYGMHWVRQAPGKGLEWVAVISYDGNNKYHADSVKGRFTISRDNSKNTLYLEMKSLRAEDTAVYYCAKEVNYGSGSFENEGRLDYWGQGTLVTVSS
chain 2: DIQMTQSPSSLSASVGDRVTITCRTSQSINRYLNWYQQKPGKAPKLLIYATSTLQSGVPSRFSGSGSGTDFILTISNLQPEDFAAYYCQQTYSIPWTFGQGTKVEIK
B3: BD55-5163 (protein)
chain 1: QVQLVQSGAEVKKPGASLKVSCKASGYTFTYFGVSWVRQAPGQGLEWVGWISTYHGDTNYAQKLQGRVTLTTDTSTSTVYMELRNLRSDDTAIYYCAREGGSGWGDFWGQGTLVTVSS
chain 2: EIVLTQSPATLSLSPGERATLSCRANQSISNYLAWYQQRPGQAPRLLIFDASNRATGIPARFTGSGSETDFTLTISSLEPEDFAVYYCQQRSNWPPAFGQGTRLDIK
B4: BD55-5168 (protein)
chain 1: QVQLVQSGSEVKKPGSSVKVSCKASGGSFRSHAISWVRQAPGQGLEWMGCVIPTFDTANYAQNFRGRVTLTADESTSTAYMELTSLTSDDTAVYYCARLFPNGTPDSPTGPLDYWGQGTLVTVSS
chain 2: DIQMTQSPSSLSASVGDRVTITCQASQGIGNYLNWYQQKPGKAPKLLIYGASNLHTGVPSRFSGRGSGTHFTFTINSLQPEDVATYYCQQYDYVPMYTFGQGTKLEIK
B5: BD55-1029 (protein)
chain 1: EVKLVESGGGLVQPGRSLRLSCAGSGFTFDDYAIHWVRQVAGKGLEWVSGMSRNSGTIGYVESVKGRFIISRDNAKNSLYLQMNRLRVEDTALYYCAKDSGKDTAMVWSSGWQNGMDVWGQGTTVIVSS
chain 2: EIVLTQSPATLSLSPGERATLSCRTSQNVSSFLAWYQQKAGQAPRLLIYDASNRATGIPARFSGSGSGTDFVLTISSLEPEDFAVYYCQQRSDWPPLTFGGGTKVEIK
B6: BD55-5201 (protein)
chain 1: QVQVVQSGAEVKKPGSSVKVSCEASGGTFSSDTIHWVRQAPGQGLEWMGRIIPIPGIVNYAQKFQGRVTITADKSTSIAYMELSSLRSEDTAVYYCASAPPRGYSGYDLLGNDPLDIWGQGTMVTVSS
chain 2: QSVLTQPPSVSGAPGQRVTISCTGSSSNIGAGYDVHWYQQLPGTAPKFFISVNNNRPSGVPDRFSGSKSGTSASLAITGLQAEDEAVYYCQSFDSSLSGSYVFGTGTKVTVL
B7: BD55-5212 (protein)
chain 1: QLQLQESGPGLVKPSETLSLTCAVSRGSISYGSFFWGWIRQPPGKGLEWIGTLDDSGSTYYNPSLKSRVTFSVDTSKNQFSLQLSSVTAADTAVYYCASTSSAWYKGYYFDFWGQGTLVTVSS
chain 2: QSVLTQPPSVSGAPGQRVTISCTGSSSNIGAGYNVQWYQQFPGTAPKLLIYGNRNRPSGVPDRFSASKSGTSASLAITGLQAEDEADYYCQSYDSSLSGWVLGTGTEVIVL
B8: BD55-5215 (protein)
chain 1: EVQLVESGGGLGQPGGSLRLSCAASGFTFSRYGMGWVRQAPGKGLEWVSVISGSGGATYYADSVKGRFTISRDNSKNTLFLQMNSLRVEDTAVYYCAKDGGQLQLVEIFTFDPWGRGTLVTVSS
chain 2: DIQMTQSPSSLSASVGDRVTITCRASQGIRNSLAWYQQKPGKAPKLLLYAASRLESGVPSRFSGSGSGTDYTLTISSLQPEDFATYYCQQYYSAWTFGQGTKVEIK
B9: BD55-5219 (protein)
chain 1: QVQLVQSGSELKRLGASVTLSCKASGYTFTNYAINWVRQAPGHGLQWMGWINPDTGTPTYAQGFAGRFVFSLDSSVSTSYLQIRSLKADDTAVYYCARDANQWPRNQWFGPWGQGTLVTVSS
chain 2: DIVLTQSPDSLAVSLGERATINCKSSHSVFYSSSNQNDLAWYQQKPGQPPKLLIYWASIRESGVPDRFSGSGSGTDFTLTISSLQAEDVAVYYCQQHYSTPLTFGGGTKVEIK
B10: BD55-5228 (protein)
chain 1: QVHLVQSGSELKKPGASVKVSCKSSGHTFTIFAINWVRQAPGQGLEWMGWINTNTGNPTYAQGFTGRFVFSLDTSVNTAYLQISSLQPEDTAVYYCVGSNWGDYYFDPWGQGTLVTVSS
chain 2: EIVMTQSPATLSVSPGERATLSCRASYSLSSNLAWYQQKPGQAPRLLIYGASIRATGFPARFSGNGSGTEFTLTISSLQSEDFAVYYCQQYTSWPLTFGQGTKVEIK
B11: BD55-5239 (protein)
chain 1: QVQLQESGPGLVRPSQTLSLTCSVSGGSISSGTYNWAWIRQPPGKDLEWIGHIYHSGSTYYNPSLRSRVNMSVDTSKNQFSLKLSSVTAADTAVYYCARERGPIAEFDFWGQGILVTVSS
chain 2: DIQMTQSPSSVSASIGDGVTITCRASQGISSWLAWYQQRPGKAPKLLISAAFTLQSGVPSRFSARGSGTDFTLIISNLQPEDFATYYCQQANSFPPTFGQGTKLEIK
B12: BD55-1035 (protein)
chain 1: EVQLSESGGGLVQPGGSLRLSCAASGFPFSTYAMTWVRQAPGKGLEWVSVITASGGSTYYADSVKGRFTISRDNYENTLYLQMNNLRTVDTAVYYCAKTMLRSSTEVVIATFFDHWGQGILVTVSS
chain 2: DIVMTQSPDSLAVSLGERATINCKSSQSILNSSNNKNFLAWYQQKPGQPPKLLIYWASNRESGVPDRFSGSGSGTDFTLTINNLQAEDVAVYYCQQYYGTPPYTFGQGTKLEIK

Experiments:
Experiment in all cases: pseudovirus neutralization IC50; higher = weaker neutralization
[1] = biological target: SARS-CoV-2 Omicron BA.1 spike pseudovirus
Method: (§1)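 Single-round VSV luciferase pseudovirus mixed with antibody dilutions for 1 h and put on Huh-7 cells for about a day; IC50 from the dose curve.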

[2] = biological target: SARS-CoV-2 Omicron BA.2 spike pseudovirus
Method: as §1

[3] = biological target: SARS-CoV-2 Omicron BA.2.75 spike pseudovirus
Method: as §1

[4] = biological target: SARS-CoV-2 Omicron BA.5 spike pseudovirus
Method: as §1

[5] = biological target: SARS-CoV-2 Omicron BQ.1.1 spike pseudovirus
Method: as §1

[6] = biological target: SARS-CoV-2 Omicron XBB spike pseudovirus
Method: as §1

[7] = biological target: SARS-CoV-2 early D614G spike pseudovirus
Method: as §1

| Binder | pseudovirus neutralization IC50 [1] | pseudovirus neutralization IC50 [2] | pseudovirus neutralization IC50 [3] | pseudovirus neutralization IC50 [4] | pseudovirus neutralization IC50 [5] | pseudovirus neutralization IC50 [6] | pseudovirus neutralization IC50 [7] |
| --- | --- | --- | --- | --- | --- | --- | --- |
| B1 | > 10 µg/mL | > 10 µg/mL | > 10 µg/mL | > 10 µg/mL | > 10 µg/mL | > 10 µg/mL | 0.242 µg/mL |
| B2 | > 10 µg/mL | > 10 µg/mL | > 10 µg/mL | > 10 µg/mL | > 10 µg/mL | > 10 µg/mL | 0.306 µg/mL |
| B3 | > 10 µg/mL | > 10 µg/mL | > 10 µg/mL | > 10 µg/mL | > 10 µg/mL | > 10 µg/mL | 0.0337 µg/mL |
| B4 | 0.0663 µg/mL | 0.491 µg/mL | 0.405 µg/mL | 0.677 µg/mL | > 10 µg/mL | > 10 µg/mL | 0.0639 µg/mL |
| B5 | 0.854 µg/mL | 0.926 µg/mL | 0.462 µg/mL | > 10 µg/mL | > 10 µg/mL | > 10 µg/mL | 0.126 µg/mL |
| B6 | > 10 µg/mL | > 10 µg/mL | > 10 µg/mL | > 10 µg/mL | > 10 µg/mL | > 10 µg/mL | 0.0188 µg/mL |
| B7 | 3.3 µg/mL | 6.93 µg/mL | 3.97 µg/mL | 5.29 µg/mL | > 10 µg/mL | > 10 µg/mL | 0.925 µg/mL |
| B8 | > 10 µg/mL | > 10 µg/mL | > 10 µg/mL | > 10 µg/mL | > 10 µg/mL | > 10 µg/mL | 1.23 µg/mL |
| B9 | > 10 µg/mL | > 10 µg/mL | > 10 µg/mL | > 10 µg/mL | > 10 µg/mL | > 10 µg/mL | 0.0136 µg/mL |
| B10 | > 10 µg/mL | > 10 µg/mL | > 10 µg/mL | > 10 µg/mL | > 10 µg/mL | > 10 µg/mL | 0.006 µg/mL |
| B11 | > 10 µg/mL | > 10 µg/mL | > 10 µg/mL | > 10 µg/mL | > 10 µg/mL | > 10 µg/mL | 0.324 µg/mL |
| B12 | 0.0188 µg/mL | 0.00926 µg/mL | 0.00671 µg/mL | > 10 µg/mL | > 10 µg/mL | > 10 µg/mL | 0.001 µg/mL |
